In patent US12433964B2, “Antiviral and antibacterial disinfection aero-solution using edible food dyes” (Purdue Research Foundation, priority 2020, dated 2025):

Test: Detection of photogenerated singlet oxygen with turn-off fluorescent ABDA radical probe and NaN3 scavenger
Type: physicochemical
Conditions: silk fabrics dyed with 50 μM dye solution, ABDA probe, green light 530 nm (FIGS. 3e, 3f)

O=C([O-])c1c(Cl)c(Cl)c(Cl)c(Cl)c1-c1c2cc(I)c(=O)c(I)c-2oc2c(I)c([O-])c(I)cc12.[Na+].[Na+] [FD&C RED No. 105, Rose Bengal]
intensity of ABDA fluorescent peaks as irradiation time increases (singlet oxygen generation): gradually drops

Erythrosine [FD&C RED No. 3]
intensity of ABDA fluorescent peaks as irradiation time increases (singlet oxygen generation): gradually drops
